Results from US7709004B2 (Bionor Immuno AS, priority 1999, dated 2010).
For some assays here: Some peptides are written in HELM: one residue between dots, names in brackets for other building blocks, links after the first $.

Experiments:
[1] = peptide synthesis; Tenta Gel P RAM, theoretical loading 0.20 meq/g (RAPP POLYMERE GmbH); details: whole synthesis, analytical HPLC
[2] = general procedure: peptide synthesis; Tenta Gel P RAM, theoretical loading 0.20 meq/g (RAPP POLYMERE GmbH); details: analytical HPLC

RAIPIPAGTLLSGGGRAIYKRWAILG
final HPLC purity [1]: more than 95%

KALGPGATLQTPWTACQGVG - NH2
final HPLC purity ([2]; whole synthesis): 87%

PEPTIDE1{K.A.L.G.P.G.A.T.L.Q.T.P.W.T.A.C.Q.G.V.G.[am]}|PEPTIDE2{W.I.I.P.G.L.N.P.L.V.G.G.G.K.L.Y.S.P.T.S.I.L.C.G.[am]}$PEPTIDE1,PEPTIDE2,16:R3-23:R3$$$V2.0
final HPLC purity ([2]; conjugation step): 92%

RWLLLGLNPLVGGGRLYSPTSILG
final HPLC purity ([2]; whole synthesis): more than 95%

RNIPIPVGDIYGGGDIYKRWQALCL
final HPLC purity [1]: 85%

WIIPGLNPLVGGGKLYSPTSILCG-NH2
final HPLC purity ([2]; whole synthesis): 95%

RALGPAATLQTPWTASLGVG
final HPLC purity ([2]; whole synthesis): more than 95%

R F I I P NI FTALSGGRRALLYGATPYAIG
final HPLC purity ([2]; whole synthesis): more than 95%
